Pooled drug test results. Numbers come from NIAID ChemDB, via PubChem.

All rows: cytotoxicity tests; cells: JM; measure: CC50

Lines come from different laboratories, so protocols vary.

compound,read by,value
CSc1ccc(OP(=O)(OC[C@H]2O[C@@H](n3cc(C)c(=O)[nH]c3=O)C[C@@H]2N=[N+]=[N-])Oc2ccc(SC)cc2)cc1,,200 µM
CCOC(=O)c1ccc(COP(=O)(O)OC[C@H]2O[C@@H](n3cc(C)c(=O)[nH]c3=O)C[C@@H]2N=[N+]=[N-])cc1,MTT,19 µM
Nc1ccn([C@H]2CC[C@@H](CO)O2)c(=O)n1,,28 µM
Cc1cn([C@H]2C[C@H](N=[N+]=[N-])[C@@H](CO)O2)c(=O)[nH]c1=O,,>1039 µM
CCOP(=O)(N[C@@H](CC(C)C)C(=O)OC)OC[C@H]1O[C@@H](n2cc(C)c(=O)[nH]c2=O)C[C@@H]1N=[N+]=[N-],MTT,500 µg/mL
Cc1cn([C@H]2C[C@H](N=[N+]=[N-])[C@@H](COP(=O)(OCc3ccc(C(=O)OC(C)C)cc3)OCc3ccc(C(=O)OC(C)C)cc3)O2)c(=O)[nH]c1=O,MTT,300 µM
O=c1ccn([C@H]2CC[C@@H](CO)O2)c(=O)[nH]1,MTT,500 µg/mL
Nc1ccn([C@H]2CC[C@@H](CO)O2)c(=O)n1,,0.5 µM
CCOC(=O)c1ccc(COP(=O)(OCc2ccc(C(=O)OCC)cc2)OC[C@H]2O[C@@H](n3cc(C)c(=O)[nH]c3=O)C[C@@H]2N=[N+]=[N-])cc1,MTT,200 µM
Cc1cn([C@H]2C[C@H](N=[N+]=[N-])[C@@H](CO)O2)c(=O)[nH]c1=O,,>1000 µM
COC(=O)C(C)NP(=O)(OC[C@H]1O[C@@H](n2cc(C)c(=O)[nH]c2=O)C[C@@H]1N=[N+]=[N-])Oc1ccc([N+](=O)[O-])cc1,,150 µM
OC[C@H]1N[C@H](CO)[C@@H](O)[C@@H]1O,MTT,>1000 µg/mL
Cc1cn([C@H]2C[C@H](N=[N+]=[N-])[C@@H](COP(=O)(Oc3ccc(C#N)cc3)Oc3ccc(C#N)cc3)O2)c(=O)[nH]c1=O,,400 µM
COC(=O)c1ccc(COP(=O)(O)OC[C@H]2O[C@@H](n3cc(C)c(=O)[nH]c3=O)C[C@@H]2N=[N+]=[N-])cc1,MTT,100 µM
Nc1ncc2ncn([C@H]3CC[C@@H](CO)O3)c2n1,,>1000 µM
Cc1cn([C@H]2C[C@H](N=[N+]=[N-])[C@@H](COP(=O)(OCc3ccccc3)OCc3ccccc3)O2)c(=O)[nH]c1=O,MTT,200 µM
CCOP(=O)(N[C@@H](C)C(=O)OC)OC[C@H]1O[C@@H](n2cc(C)c(=O)[nH]c2=O)C[C@@H]1N=[N+]=[N-],MTT,1000 µg/mL
Cc1cn([C@H]2C[C@H](N=[N+]=[N-])[C@@H](COP(=O)(OCC(Cl)(Cl)Cl)Oc3ccccc3)O2)c(=O)[nH]c1=O,,50 µM

For reference, 2 entries again:

compound,read by,value
Cc1cn([C@H]2C[C@H](N=[N+]=[N-])[C@@H](CO)O2)c(=O)[nH]c1=O,,>1039 µM
CSc1ccc(OP(=O)(OC[C@H]2O[C@@H](n3cc(C)c(=O)[nH]c3=O)C[C@@H]2N=[N+]=[N-])Oc2ccc(SC)cc2)cc1,,200 µM

An empty or dashed field is not shown. CCn: concentration that lowers growth or viability of the cells by n%.